Pooled drug test results. Numbers come from NIAID ChemDB, via PubChem.

Common to all: tests in culture; organism: Candida albicans; read-out: MIC

Two numbers with a dash give a range or band. An empty or dashed field is not shown. Neighbouring rows are from separate reports.

compound | strain or isolate | read by | conditions | result
Cc1ccc(-c2nn(C)c3nc(=O)n(-c4ccccc4)c(=O)c-3[n+]2[O-])cc1 | IFO 0583 | - | - | 100 µg/mL
CO[C@@H]1CN(c2c(F)cn3c(=O)c(C(=O)O)cc(C4CC4)c3c2C)C[C@H]1N | CCH442 | - | - | >100 µg/mL
Cn1nc(-c2ccc(Cl)c(Cl)c2)[n+]([O-])c2c(=O)n(C)c(=O)nc1-2 | IFO 0583 | - | - | 20 µg/mL
CN1CCC2=C(CCCC2Cc2ccccc2)C1 | C316 | - | - | 31 µg/mL
CC1NCCc2cc(O)c(O)cc21 | IFO1061 | - | - | >500 µg/mL
Cc1c(N2C[C@@H](N)[C@@H](C)C2)c(F)cn2c(=O)c(C(=O)O)cc(C3CC3)c12 | CCH442 | - | - | 1.56 µg/mL
N#CC1=C(N)N(c2nc(-c3ccc(O)cc3)cs2)C2=C(C(=O)CCC2)C1c1cc2cc(Cl)ccc2nc1F | MTCC 227 | broth dilution | - | 500 µg/mL
Cc1c(N)nc([C@H](CC(N)=O)NC[C@H](N)C(N)=O)nc1C(=O)N[C@H](C(=O)N[C@H](C)[C@@H](O)[C@H](C)C(=O)N[C@H](C(=O)NCCc1nc(-c2nc(C(=O)NCCC[S+](C)C)cs2)cs1)[C@@H](C)O)C(O[C@@H]1O[C@@H](CO)[C@@H](O)[C@H](O)[C@@H]1O[C@H]1O[C@H](CO)[C@@H](O)[C@H](OC(N)=O)[C@@H]1O)c1cnc[nH]1 | - | - | - | 500–1500 µg/mL
COc1cc2c(c3oc(=O)c4c(c13)CCC4=O)[C@H]1CCO[C@H]1O2 | - | agar | - | >100 µM
CCOC(=O)C1C(c2ccccc2)CC(c2ccc(OC)cc2)=CC12NCCN2 | CaCYP51 | - | - | 12.5 µg/mL
Cn1nc[n+]([O-])c2c(=O)n(C)c(=O)nc1-2 | IFO 0583 | - | - | 50 µg/mL
CCOc1ccc2[nH]c3c(c2c1)C1[C@](C)(C(=O)OC)CCC[C@]1(C)c1ccc(C(C)C)cc1-3 | CGMCC 2.2086 | - | - | 62.5 µg/mL
Cc1c(N2CCc3c(N)cccc3C2)c(F)cn2c(=O)c(C(=O)O)cc(C3CC3)c12.Cl | CCH442 | - | - | >100 µg/mL
Cn1nc(-c2ccccc2)nc2c(=O)n(-c3ccccc3)c(=O)nc1-2 | IFO 0583 | - | - | 100 µg/mL
Cc1c(N2CCC(CCO)CC2)c(F)cn2c(=O)c(C(=O)O)cc(C3CC3)c12 | CCH442 | - | - | >100 µg/mL
CC[C@H](NC)C1CCN(c2c(F)cn3c(=O)c(C(=O)O)cc(C4CC4)c3c2C)C1 | CCH442 | - | - | 100 µg/mL
Clc1ccc(CCC(Cn2ccnc2)Sc2c(Cl)cccc2Cl)cc1 | - | - | - | 6 µg/mL
CN1CCC2=C(CCCC2CCc2ccc(F)cc2)C1 | 2381E | - | - | 16 µg/mL
CCOC(=O)C1C(c2ccc(C)cc2)CC(c2ccc(Cl)cc2)=CC12NCCN2 | CaCYP51 | - | - | 25 µg/mL
CCCCCCCCCCCCCC(=O)O[C@@H]1[C@@H](C)[C@@]2(O)[C@@H](C=C(CO)C[C@]3(O)C(=O)C(C)=C[C@@H]23)[C@@H]2C(C)(C)[C@]12OC(C)=O | ATCC 44859 | - | - | 16 µg/mL
CCCCCOc1ccc(-c2ccc(-c3ccc(C(=O)N[C@H]4C[C@@H](O)[C@@H](O)NC(=O)[C@@H]5[C@@H](O)[C@@H](C)CN5C(=O)[C@H]([C@H](C)O)NC(=O)[C@H]([C@H](O)[C@@H](O)c5ccc(O)cc5)NC(=O)[C@@H]5C[C@@H](O)CN5C(=O)[C@H]([C@H](C)O)NC4=O)cc3)cc2)cc1 | - | - | - | 0.015–0.125 µg/mL
CN1CCC2=C(CCCC2CCc2ccc(Cl)cc2Cl)C1 | 2402E | - | - | 62 µg/mL
Cc1c(N2CC[C@H](C3CC3N)C2)c(F)cn2c(=O)c(C(=O)O)cc(C3CC3)c12 | CCH442 | - | - | >100 µg/mL
CN1CCC2=C(CCCC2CCc2ccccc2)C1 | 2005E | - | - | 31 µg/mL
CO[C@@]12[C@H](COC(N)=O)C3=C(C(=O)C(C)=C(N)C3=O)N1C[C@@H]1N[C@@H]12 | - | - | - | 500–1500 µg/mL
CCCCCC1NCCc2cc(O)c(O)cc21 | IFO1061 | - | - | >500 µg/mL
C[C@H]1[C@H](O)[C@@H](C)/C=C/C=C/C=C/C=C/C=C/C=C/C=C/[C@H](O[C@@H]2O[C@H](C)[C@@H](O)[C@H](N)[C@@H]2O)C[C@@H]2O[C@](O)(C[C@@H](O)C[C@@H](O)CC[C@H](O)[C@@H](O)C[C@@H](O)CC(=O)O[C@H]1C)C[C@H](O)[C@H]2C(=O)O | ATCC 90028 | MTT | - | 3 µg/mL
C[C@@H]1[C@H](O)[C@@H](C)/C=C/C=C/CC/C=C/C=C/C=C/C=C/C(O[C@H]2O[C@H](C)[C@@H](O)[C@H](N)[C@@H]2O)CC2O[C@](O)(CC(O)C(O)CCC(O)CC(O)CC(O)CC(=O)O[C@H]1C)CC(O)C2C(=O)O | MTCC 227 | - | - | 100 µg/mL
Cc1ccc2nc(F)c(C3C(C#N)=C(N)N(c4nc(-c5ccc(O)cc5)cs4)C4=C3C(=O)CCC4)cc2c1 | MTCC 227 | broth dilution | - | >1000 µg/mL
Cc1c(N2CCNCC2)c(F)cn2c(=O)c(C(=O)O)cc(C3CC3)c12 | CCH442 | - | - | >100 µg/mL
CCC(C)n1ncn(-c2ccc(N3CCN(c4ccc(OC[C@H]5CO[C@](Cn6cncn6)(c6ccc(Cl)cc6Cl)O5)cc4)CC3)cc2)c1=O | A14058 | - | - | 0.25 µg/mL
Oc1cc(Cl)cc2cc(Cl)cnc12 | ATCC 60913 | - | 48 h | 12 µg/mL
CCOC(=O)C1=C(N)N(c2nc(-c3ccccc3)cs2)C2=C(C(=O)CCC2)C1c1cc2ccccc2nc1F | MTCC 227 | broth dilution | - | 500 µg/mL
Oc1cccc2cc(Cl)cnc12 | ATCC 60913 | - | 24 h | 50 µg/mL
COC(=O)[C@]1(C)CCC[C@]2(C)c3ccc(C(C)C)cc3-c3[nH]c4c(OC)cccc4c3C12 | CGMCC 2.2086 | - | - | >100 µg/mL
CC[C@]1(O)C[C@H]2CN(CCc3c([nH]c4ccccc34)[C@@](C(=O)OC)(c3cc4c(cc3OC)N(C=O)[C@H]3[C@@](O)(C(=O)OC)[C@H](OC(C)=O)[C@]5(CC)C=CCN6CC[C@]43[C@@H]65)C2)C1 | - | - | - | 500–1500 µg/mL
Cn1ncnc2c(=O)n(C)c(=O)nc1-2 | IFO 0583 | - | - | 20 µg/mL
NNC(=O)c1ccccc1 | MTCC 227 | broth dilution | - | 1000 µg/mL
Cc1c(N2CCC(CC3CC3N)C2)c(F)cn2c(=O)c(C(=O)O)cc(C3CC3)c12 | CCH442 | - | - | >100 µg/mL
Oc1ccc(Cl)c2cccnc12 | ATCC 60913 | - | 48 h | 6.2 µg/mL
CC(C)C1c2cc(OCc3ccccc3)c(OCc3ccccc3)cc2CCN1Cc1ccccc1 | IFO1061 | - | - | >500 µg/mL
COc1cc2c(c3oc(=O)c4c(c13)CCC4=O)C1C=COC1O2 | - | agar | - | >100 µM
CN1CCC2=C(CCCC2CCc2ccc(Br)cc2)C1 | 2402E | - | - | 4 µg/mL
Cc1c2cc(OCc3ccccc3)c(OCc3ccccc3)cc2cc[n+]1C | IFO1061 | - | - | 250 µg/mL
CN1CCC2=C(CCCC2CCc2ccccc2Cl)C1 | 1208E | - | - | 62 µg/mL
COC(=O)[C@]1(C)CCC[C@]2(C)c3ccc(C(C)C)cc3-c3[nH]c4ccc(OC)cc4c3C12 | CGMCC 2.2086 | - | - | 62.5 µg/mL
COc1ccc2nc(F)c(C3C(C#N)=C(N)N(c4nc(-c5ccc(Cl)cc5)cs4)C4=C3C(=O)CCC4)cc2c1 | MTCC 227 | broth dilution | - | 500 µg/mL
COC(=O)[C@]1(C)CCC[C@]2(C)c3ccc(C(C)C)cc3-c3[nH]c4ccc(Br)cc4c3C12 | CGMCC 2.2086 | - | - | >100 µg/mL
CC1=C(N2CC3(CC(N)C3)C2)C(F)=CN2C(=O)C(C(=O)O)=CC(C3CC3)C12 | CCH442 | - | - | >100 µg/mL
COC(=O)[C@]1(C)CCC[C@]2(C)c3ccc(C(C)C)cc3-c3[nH]c4c(F)cccc4c3C12 | CGMCC 2.2086 | - | - | 31.2 µg/mL
Cc1c(N2CCC(C)(N)CC2)c(F)cn2c(=O)c(C(=O)O)cc(C3CC3)c12.Cl | CCH442 | - | - | >100 µg/mL
N#CC1=C(N)N(c2nc(-c3ccc(Cl)cc3)cs2)C2=C(C(=O)CCC2)C1c1cc2cc(Cl)ccc2nc1F | MTCC 227 | broth dilution | - | 500 µg/mL
Cc1c(N2CCC(F)C2)c(F)cn2c(=O)c(C(=O)O)cc(C3CC3)c12 | CCH442 | - | - | >100 µg/mL
CCOC(=O)C1=C(N)N(c2nc(-c3ccc(Cl)cc3)cs2)C2=C(C(=O)CCC2)C1c1cc2cc(OC)ccc2nc1F | MTCC 227 | broth dilution | - | 500 µg/mL
CCCCCOc1ccc(-c2cc(-c3ccc(C(=O)N[C@H]4C[C@@H](O)[C@@H](O)NC(=O)[C@@H]5[C@@H](O)[C@@H](C)CN5C(=O)[C@H]([C@H](O)CC(N)=O)NC(=O)[C@H]([C@H](O)[C@@H](O)c5ccc(O)c(OS(=O)(=O)O)c5)NC(=O)[C@@H]5C[C@@H](O)CN5C(=O)[C@H]([C@@H](C)O)NC4=O)cc3)no2)cc1 | - | - | - | 0.015–0.3 µg/mL
CC1c2cc(OCc3ccccc3)c(OCc3ccccc3)cc2CCN1Cc1ccccc1 | IFO1061 | - | - | >500 µg/mL
Cc1c(N2CCCC(CN)C2)c(F)cn2c(=O)c(C(=O)O)cc(C3CC3)c12.Cl | CCH442 | - | - | >100 µg/mL
CCC(C)CC(C)CCCCCCCCC(=O)N[C@H]1C[C@@H](O)[C@H](NCCN)NC(=O)[C@@H]2[C@@H](O)CCN2C(=O)[C@H]([C@H](O)CCN)NC(=O)[C@H]([C@H](O)[C@@H](O)c2ccc(O)cc2)NC(=O)[C@@H]2C[C@@H](O)CN2C(=O)[C@H]([C@@H](C)O)NC1=O | - | - | - | 0.016–2 µg/mL
Cc1c(N2CC[C@H](NC(=O)[C@H](C)NC(=O)[C@H](C)N)C2)c(F)cn2c(=O)c(C(=O)O)cc(C3CC3)c12.Cl | CCH442 | - | - | >100 µg/mL
CCOC(=O)C1C(c2ccc(C)cc2)CC(c2ccccc2)=CC12NCCN2 | CaCYP51 | - | - | 12.5 µg/mL
CC(CCc1ccccc1)c1ccncc1 | C316 | - | - | 31 µg/mL

A second listing of 5 rows from above:

{"compound": "CCCCCOc1ccc(-c2cc(-c3ccc(C(=O)N[C@H]4C[C@@H](O)[C@@H](O)NC(=O)[C@@H]5[C@@H](O)[C@@H](C)CN5C(=O)[C@H]([C@H](O)CC(N)=O)NC(=O)[C@H]([C@H](O)[C@@H](O)c5ccc(O)c(OS(=O)(=O)O)c5)NC(=O)[C@@H]5C[C@@H](O)CN5C(=O)[C@H]([C@@H](C)O)NC4=O)cc3)no2)cc1", "result": "0.015–0.3 µg/mL"}
{"compound": "COc1cc2c(c3oc(=O)c4c(c13)CCC4=O)C1C=COC1O2", "read by": "agar", "result": ">100 µM"}
{"compound": "CN1CCC2=C(CCCC2Cc2ccccc2)C1", "strain or isolate": "C316", "result": "31 µg/mL"}
{"compound": "Oc1cc(Cl)cc2cc(Cl)cnc12", "strain or isolate": "ATCC 60913", "conditions": "48 h", "result": "12 µg/mL"}
{"compound": "Cc1c(N2CCNCC2)c(F)cn2c(=O)c(C(=O)O)cc(C3CC3)c12", "strain or isolate": "CCH442", "result": ">100 µg/mL"}